Measurements reported in PubChem BioAssay AID504761 (Drosophila RNAi Screening Center, 2011).

Assay: 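Insect host genes that dengue virus relies on to spread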 (primary screen)
Cells: D.Mel-2 cells from Drosophila
Reagent: long dsRNA against Drosophila genes
Challenge: infection with dengue virus type 2; dose and infection time not stated
Read-out: 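Per well on two replicate plates, imaging gave the percent of cells positive for viral envelope protein, ranked by infection, and a nuclear count of cells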
Scale: infection score: higher = more virus-infected cells
Call rule: 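Very low infection ranking in both replicate wells (chance probability at most 0.065), then a retest showing infection dropped 1.5-fold or more at p below 0.05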
Meaning of the calls: active = confirmed: knock-down lowers infection; inactive = not picked or not confirmed
The deposit covers about 22,000 reagents; shown is an unselected part of those with a known target gene and a result. In the full data, 116 (0.52%) are marked active. 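Calls depend on retest data that are not deposited; infection was ranked per plate without normalising between plates; the unit of the infection score is not given.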 A plus sign joins genes that one reagent is predicted to hit. Further read-outs or replicates are left out here. Not given: the amount of reagent, the time to read-out.

Gene | amplicon | infection score, replicate 1 | infection score, replicate 2 | activity call
CG4619 (GeneID 34321) | DRSC02764 | 16 | 10.7 | inactive
CG11249 (GeneID 40409) | DRSC11645 | 3.98 | 2.72 | inactive
CG15098 (GeneID 37174) | DRSC06527 | 3.89 | 1.26 | inactive
CG15098 (GeneID 37174) | DRSC29966 | 40.5 | 40.8 | inactive
AdoR (GeneID 43583) | DRSC16556 | 8.78 | 8.89 | inactive
AdoR (GeneID 43583) | DRSC28071 | 5.83 | 6.21 | inactive
CG3348 (GeneID 50082) | DRSC15480 | 7.23 | 0.9 | inactive
CG14989 (GeneID 38485) | DRSC08448 | 15.4 | 4.53 | inactive
CG14989 (GeneID 38485) | DRSC25585 | 2.04 | 1.53 | inactive
CG31454 (GeneID 318744) | DRSC14365 | 13.8 | 7.27 | inactive
CG31454 (GeneID 318744) | DRSC22801 | 2.22 | 18.9 | inactive
CG31454 (GeneID 318744) | DRSC24377 | 4.01 | 4.44 | inactive
CG15475 (GeneID 35319) | DRSC02486 | 4.11 | 12.4 | inactive
CG15475 (GeneID 35319) | DRSC30114 | 3.11 | 7.91 | inactive
CG12521 (GeneID 50289) | DRSC09893 | 2.69 | 2.39 | inactive
Adgf-B (GeneID 39975) | DRSC10568 | 3.74 | 19.4 | inactive
Adgf-B (GeneID 39975) | DRSC24118 | 2.07 | 2.75 | inactive
CG12795 (GeneID 33561) | DRSC00354 | 5.83 | 2.81 | inactive
cbt (GeneID 33224) | DRSC00655 | 2.93 | 10.2 | inactive
cbt (GeneID 33224) | DRSC26117 | 6.79 | 4.36 | inactive
Zn72D (GeneID 39764) | DRSC11318 | 3.37 | 19.7 | inactive
Tret1-2 (GeneID 36249) | DRSC07117 | 7.21 | 10.7 | inactive
Tret1-2 (GeneID 36249) | DRSC28985 | 13.4 | 16.8 | inactive
CG12075 (GeneID 31815) | DRSC17801 | 7.82 | 4.82 | inactive
CG12075 (GeneID 31815) | DRSC25257 | 3.38 | 2.94 | inactive
CG11601 (GeneID 33197) | DRSC00318 | 10.5 | 1.86 | inactive
pll (GeneID 43283) | DRSC17026 | 6.73 | 3.48 | inactive
pll (GeneID 43283) | DRSC28551 | 4.48 | 7.4 | inactive

The list goes on (3 carried over from the part before).
Gene | amplicon | infection score, replicate 1 | infection score, replicate 2 | activity call
CG11601 (GeneID 33197) | DRSC00318 | 10.5 | 1.86 | inactive
pll (GeneID 43283) | DRSC17026 | 6.73 | 3.48 | inactive
pll (GeneID 43283) | DRSC28551 | 4.48 | 7.4 | inactive
CG3288 (GeneID 40307) | DRSC11745 | 6.06 | 7.34 | inactive
cutlet (GeneID 44637) | DRSC00284 | 1.36 | 2.52 | inactive
cutlet (GeneID 44637) | DRSC29552 | 19.6 | 4.41 | inactive
CG15914 (GeneID 32542) | DRSC19739 | 2.58 | 1.52 | inactive
mute (GeneID 2768848) | DRSC06562 | 7.7 | 8.21 | inactive
mute (GeneID 2768848) | DRSC22931 | 1.53 | 1.03 | inactive
mute (GeneID 2768848) | DRSC29848 | 3.96 | 0.96 | inactive
CG5500 (GeneID 43233) | DRSC15820 | 1.46 | 1.32 | inactive
CG5500 (GeneID 43233) | DRSC29450 | 19.4 | 18.4 | inactive
corn (GeneID 38786) | DRSC11021 | 19.2 | 19.1 | inactive
corn (GeneID 38786) | DRSC21943 | 1.86 | 12 | inactive
corn (GeneID 38786) | DRSC27306 | 21.1 | 5.43 | inactive
Act87E (GeneID 48632) | DRSC22578 | 2.35 | 0.58 | inactive
Act87E (GeneID 48632) | DRSC23961 | 5.57 | 3.48 | inactive
ZnT49B (GeneID 36393) | DRSC07225 | 12.5 | 7.91 | inactive
spn-A (GeneID 43577) | DRSC16812 | 7.38 | 2.31 | inactive
CG10139 (GeneID 36626) | DRSC05972 | 12.6 | 15.5 | inactive
CG14644 (GeneID 40536) | DRSC12230 | 2.38 | 1 | inactive
Pnn (GeneID 41185) | DRSC16415 | 2.24 | 6.34 | inactive
nur (GeneID 318957) | DRSC01342 | 2.5 | 3.16 | inactive
nur (GeneID 318957) | DRSC29629 | 5.38 | 15.2 | inactive
BaraA1 + BaraA2 | DRSC05417 | 0.33 | 0.18 | inactive
CG31802 (GeneID 318949) | DRSC02459 | – | 2.3 | inactive
CG12481 (GeneID 32364) | DRSC19461 | 2.18 | 1.25 | inactive
CG1394 (GeneID 32059) | DRSC19539 | 15 | 6.48 | inactive
CG1394 (GeneID 32059) | DRSC25019 | 3.08 | 6.66 | inactive
CG18744 (GeneID 59140) | DRSC15381 | 12.8 | 12.6 | inactive
CG15545 (GeneID 43658) | DRSC15083 | 1.7 | 2.63 | inactive
CG15545 (GeneID 43658) | DRSC29523 | 23.2 | – | inactive
Ac76E (GeneID 40180) | DRSC09642 | 1.12 | 0.82 | inactive
Ac76E (GeneID 40180) | DRSC09662 | 10.2 | 23.5 | inactive
